Measured values from patent publication US20240150396A1 (The Texas A&M University System, priority 2021, published 2024).
pEC50, pKi: −log10 of the molar value.

Protein sequences, listed by entry. Tags and fused reporters are not part of them. Residues count along the entry.
UniProt P25779, 123-467 limits assumed: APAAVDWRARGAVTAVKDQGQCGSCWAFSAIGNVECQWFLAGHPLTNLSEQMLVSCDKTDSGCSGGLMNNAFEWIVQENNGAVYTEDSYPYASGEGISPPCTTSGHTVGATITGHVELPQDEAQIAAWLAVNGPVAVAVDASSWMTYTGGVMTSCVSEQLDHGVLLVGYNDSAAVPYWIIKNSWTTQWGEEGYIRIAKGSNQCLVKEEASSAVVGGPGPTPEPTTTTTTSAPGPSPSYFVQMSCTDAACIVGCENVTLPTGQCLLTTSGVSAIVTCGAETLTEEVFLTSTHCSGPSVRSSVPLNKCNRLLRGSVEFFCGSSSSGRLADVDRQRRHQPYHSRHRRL

Key:
[1] = tested on: SARS-CoV-2 in Vero E6 cells; experiment: Anti-CoV-2 activity in Vero E6 cells; assay type: cell-based; conditions: for pEC50: read-out: Anti-CoV-2 EC50 Vero E6 Cells
[2] = tested on: SARS-CoV-2 in A549/ACE2 cells; conditions: read-out: Anti-CoV-2 EC50 A549/ACE2 Cells
cruzain = cruzain (Trypanosoma cruzi, UniProt P25779); conditions: read-out: Ki* Cruzain; obtained >10 minutes following initiation of reaction by addition of enzyme; pH 7.5
SARS-CoV-2 3CL protease = SARS-CoV-2 3CL protease (Severe acute respiratory syndrome coronavirus 2 (2019-nCoV) (SARS-CoV-2), UniProt P0DTD1); conditions: read-out: Ki* 3CLpro; pH 7.5

SMILES	Anti-CoV-2 EC50 Vero E6 Cells [1]	pEC50 [1]	pEC50 [2]	pKi (cruzain)	pKi (SARS-CoV-2 3CL protease)
CN1CCN(C(=O)N[C@@H](Cc2ccccc2)C(=O)N[C@H](C=O)Cc2ccc[nH]c2=O)CC1	no activity	< 4.70	< 4.70	8.70	–
CC(=O)N[C@H](C(=O)N[C@@H](CC1CCCCC1)C(=O)N[C@H](C=O)Cc1ccc[nH]c1=O)C(C)C	–	< 4.70	–	–	7.22
O=C[C@H](Cc1ccc[nH]c1=O)NC(=O)[C@H](Cc1ccc([N+](=O)[O-])cc1)NC(=O)c1cc2ccccc2[nH]1	–	< 4.70	< 4.70	–	–
CC(C)[C@H](NC(=O)OCc1ccccc1)C(=O)N[C@@H](CC1CCCCC1)C(=O)N[C@H](C=O)Cc1ccc[nH]c1=O	–	–	5.30	–	8.05
CC(C)C[C@H](NC(=O)c1cc2ccccc2[nH]1)C(=O)N[C@H](C=O)Cc1ccc[nH]c1=O	–	< 4.70	< 4.70	–	–
CC(=O)N[C@H](C(=O)N1CCC[C@H]1C(=O)N[C@H](C=O)Cc1ccc[nH]c1=O)C(C)C	–	< 4.70	< 4.70	–	5.94
CC(=O)N[C@H](C(=O)N1CCC[C@H]1C(=O)N[C@H](C#N)Cc1ccc[nH]c1=O)C(C)C	–	< 4.70	< 4.70	–	6.84
